Results of unrelated studies side by side (data: NIAID ChemDB).

Common to all: toxicity to cultured cells; cells: KB; endpoint: CC50

Blank or dashed fields: not listed here.

SMILES | method | result
Clc1nnnc2c1C1=C(CCC/C1=C\c1ccncc1)C(c1ccncc1)S2 | MTT | 11.9 µM
OCC(CO)OCn1c(SCc2ccccc2)nc2c(Cl)c(Cl)ccc21 |  | 60 µM
CC(C)Nc1nc2cc(Cl)c(Cl)cc2n1[C@H]1O[C@H](CO)[C@H](O)[C@@H]1O |  | >100 µM
COC(=O)c1nnn([C@@H]2C(=O)N(C3CCCCC3)[C@@H]2/C=C/c2ccccc2)c1C(=O)OC |  | >228 µM
C/C(=C\C[C@H](O)[C@@H](C)[C@H]1CC[C@@]2(C)C3=C(CC[C@]12C)[C@@]1(C)CC[C@H](O)C(C)(C)C1CC3)C(=O)O | resazurin | >50 µg/mL
OCCCOCc1c(Cl)nc2cc(Cl)c(Cl)cn12 |  | >100 µM
C=C1[C@H](n2cc(CCCl)c(=O)[nH]c2=O)S[C@H](CO)[C@H]1O | MTT | >100 µg/mL
CN(C)c1nc2cc(Cl)c(Cl)cc2n1COC(CO)CO |  | >100 µM
C=C1[C@H](O)[C@@H](CO)S[C@@H]1n1cc(/C=C/Br)c(=O)[nH]c1=O | MTT | >100 µg/mL
C[C@H]([C@@H]1CC[C@@H](C)C(=O)O1)[C@H]1CC[C@@]2(C)C3=C(CC[C@]12C)[C@@]1(C)CC[C@@H](O)C(C)(C)C1CC3 | resazurin | >50 µg/mL
O=C(CCCCCCCCc1ccccc1)c1c(O)cccc1O | resazurin | >60 µg/mL
OCC(CO)OCn1c(Br)nc2c(Cl)cc(Cl)cc21 |  | >100 µM
COc1c(C)c(C)c2[nH]c3ccccc3c2c1OC | resazurin | 30.1 µg/mL
CN1N=C(N)c2cn([C@@H]3O[C@H](CO)[C@@H](O)[C@H]3O)c3nc(Cl)nc1c23 |  | 33 µM
CC(=O)O[C@H]1[C@H](n2c(Cl)nc3cc(Cl)c(Cl)cc32)OC[C@H]1OC(C)=O |  | 45 µM
COC[C@H]1O[C@@H](n2c(Cl)nc3cc(Cl)c(Cl)cc32)[C@H](O)[C@@H]1O |  | 90 µM
OCCOCn1c(=S)[nH]c2c(Cl)cc(Cl)cc21 |  | >100 µM
CC(C)Nc1nc2cc(Cl)c(Cl)cc2n1[C@@H]1OC[C@@H](O)[C@H]1O |  | >100 µM
CCOC(=O)c1ccc(OCCC2CCN(c3ccc(C)nn3)CC2)cc1 |  | >13.35 µM
C[N+](C)(C)C(Cc1c[nH]c2ccccc12)C(=O)[O-] | resazurin | >50 µg/mL
CN(C)c1nc2c(Cl)cc(Cl)cc2n1COC(CO)CO |  | >100 µM
Cc1ccc(Cn2c(N)c(C#N)c3c(N)ncnc32)cc1 |  | 90 µM
CCOC(=O)c1cnc2ccc3c(C)cc(=O)[nH]c3c2c1C |  | 15 µg/mL
COc1cc([C@@H]2CCc3ccc(O)cc3O2)ccc1O | resazurin | 16.24 µg/mL
COc1ccc2[nH]c3c(C)c(C)c(OC)c(OC)c3c2c1 | resazurin | 33.2 µg/mL
Cc1ccc(N2C(=O)[C@@H](n3cc(-c4ccccc4)nn3)[C@H]2/C=C/c2ccccc2)cc1 |  | 89.15 µM
C=C1[C@H](n2cc(C)c(=O)[nH]c2=O)S[C@H](CO)[C@H]1O | MTT | >100 µg/mL
C[C@@H]1C[C@@H](O)[C@H]2C3=C(C[C@H](O)[C@@]2(O)C1)C(=O)c1c(O)cccc1C3=O | resazurin | 4.9 µM
O=C1[C@@H](n2cc(-c3ccccc3)nn2)[C@@H](/C=C/c2ccccc2)N1c1ccccc1 |  | 91.25 µM
CN1N=C(N)c2cn([C@@H]3O[C@H](CO)[C@@H](O)[C@H]3O)c3nc(N)nc1c23 |  | 60 µM
Cc1nc2c(c(=N)n1Nc1ccccc1)C1=C(CCC/C1=C\c1ccncc1)C(c1ccncc1)S2 | MTT | 11.5 µM
Nc1nc2c(ncn2COC(CO)CO)c(=O)[nH]1 |  | >100 µM
Nc1nc2c(ncn2COC(CO)CO)c(=O)[nH]1 |  | ≥200 µM
CC(=O)O[C@@H]1[C@H](OC(C)=O)[C@@H](CBr)O[C@H]1n1c(Cl)nc2cc(Cl)c(Cl)cc21 |  | 60 µM
C[C@@H]1O[C@@H](n2c(Cl)nc3cc(Cl)c(Cl)cc32)[C@H](O)[C@@H]1O |  | 60 µM
OCC(CO)OCn1c(Br)nc2c(Cl)c(Cl)ccc21 |  | >100 µM
O[C@H]1[C@@H](O)CO[C@H]1c1c(Cl)nc2cc(Cl)c(Cl)cn12 |  | >100 µM
OCCOCc1c(Cl)nc2cc(Cl)c(Cl)cn12 |  | >100 µM
COc1ccc2[nH]c3c(Cc4ccc5[nH]c6c(C)c(C)c(OC)c(O)c6c5c4)c(C)c(OC)c(O)c3c2c1 | resazurin | 40.1 µg/mL
CCc1nc2c3c(cn([C@@H]4O[C@H](CO)[C@@H](O)[C@H]4O)c3n1)C(N)=NN2C |  | >100 µM
Cc1ncc(-c2c[nH]c3ccccc23)o1 | resazurin | >50 µg/mL
C[C@@H]1CC[C@H]2C3=C(C[C@H](O)[C@@]2(O)C1)C(=O)c1c(O)cccc1C3=O | resazurin | 9.1 µM
COc1cc2c3c(cc(O)c2cc1C)C(C)(C)C(=O)OC3=O | absorbance | >10 µM
CCCCCOc1ccc(N2C(=O)CCNC2=S)cc1 |  | >1 µg/mL
CCCCOC[C@H]1O[C@@H](n2c(Cl)nc3cc(Cl)c(Cl)cc32)[C@H](OC(C)=O)[C@@H]1OC(C)=O |  | >100 µM
C=C1[C@H](O)[C@@H](CO)S[C@@H]1n1cc(CCCl)c(=O)[nH]c1=O | MTT | >100 µg/mL
CC(C)Oc1ccc(N2C(=O)CCNC2=S)cc1 |  | >1 µg/mL
[N-]=[N+]=NC[C@H]1O[C@@H](n2c(Cl)nc3cc(Cl)c(Cl)cc32)[C@H](O)[C@@H]1O |  | 70 µM
CCc1c(O)c2c(c(O)c1OC)C(=O)C(OC)CC2 |  | 13.63 µg/mL
O[C@@H]1[C@H](O)CO[C@H]1n1c(Cl)nc2cc(Cl)c(Cl)cc21 |  | 60 µM
O=C1Sc2nc3c(c(=S)n2C/C1=C/c1ccc(Cl)cc1)C1=C(CCC/C1=C\c1ccncc1)C(c1ccncc1)S3 | MTT | 16.5 µM
C=C1[C@H](n2cc(CC)c(=O)[nH]c2=O)S[C@H](CO)[C@H]1O | MTT | >100 µg/mL
CNc1nc2c(Cl)c(Cl)ccc2n1COC(CO)CO |  | >100 µM
Nc1nc(N)c2cc3c(ccc4ccccc43)nc2n1 | MTT | 6.7 µM
CCSCc1c(Cl)nc2ccc(Cl)cn12 |  | >100 µM
CC(C)Nc1nc2cc(Cl)c(Cl)cc2n1[C@H]1O[C@@H](CO)[C@H](O)[C@@H]1O |  | 65 µM
C=C1[C@H](O)[C@@H](CO)S[C@@H]1n1cc(C)c(=O)[nH]c1=O | MTT | >100 µg/mL
CCCCCCCCN1C(=O)CCNC1=S |  | 1.8 µg/mL
CNc1nc2c(Cl)cc(Cl)cc2n1COCCO |  | >100 µM
CCOc1ccc(N2C(=O)CCNC2=S)cc1 |  | >1 µg/mL
C=CCOCc1c(Cl)nc2ccc(Cl)cn12 |  | >100 µM

8 of the rows above, restated:

SMILES,method,result
Cc1ccc(N2C(=O)[C@@H](n3cc(-c4ccccc4)nn3)[C@H]2/C=C/c2ccccc2)cc1,,89.15 µM
Cc1ccc(Cn2c(N)c(C#N)c3c(N)ncnc32)cc1,,90 µM
COC[C@H]1O[C@@H](n2c(Cl)nc3cc(Cl)c(Cl)cc32)[C@H](O)[C@@H]1O,,90 µM
OCCOCn1c(=S)[nH]c2c(Cl)cc(Cl)cc21,,>100 µM
Clc1nnnc2c1C1=C(CCC/C1=C\c1ccncc1)C(c1ccncc1)S2,MTT,11.9 µM
CC(C)Nc1nc2cc(Cl)c(Cl)cc2n1[C@H]1O[C@H](CO)[C@H](O)[C@@H]1O,,>100 µM
OCCOCc1c(Cl)nc2cc(Cl)c(Cl)cn12,,>100 µM
C=CCOCc1c(Cl)nc2ccc(Cl)cn12,,>100 µM

CCn: concentration that lowers growth or viability of the cells by n%. Rows are shuffled and stem from different studies.